A mixed list of measured activities; the numbers were collected in NIAID ChemDB.

Common to all: whole-cell or culture tests; agent: Herpes simplex virus 2

ECn: concentration that inhibits the pathogen or its effect by n%.

compound,method,strain or isolate,endpoint,cells,value
CCCCCCOC(=O)c1ccc2cc(-c3ccccc3)cn2c1,plaque count,186,EC50,VERO,>100 µM
C#Cc1cn(S(=O)(=O)c2ccc(C)cc2)c(=O)[nH]c1=O,cytopathic effect,G,EC50,HEL,>200 µM
Nc1nc2c(ncn2CCC(CO)CO)c(=O)[nH]1,plaque count,UW-268,EC50,MRC-5,2.2 µg/mL
O=c1c2ncn(COCCO)c2nc2[nH]c(-c3ccccc3)c(Cc3ccccc3)n12,cytopathic effect,LYONS,EC50,HEL,>16 µg/mL
CCCc1cn([C@@H]2O[C@H](CO)[C@@H](O)[C@@H]2O)c(=O)[nH]c1=O,,MS,MIC,,320 µg/mL
Cc1ccn2c(C3OCCS3)cnc2c1,,G,EC50,E6SM,>1000 µM
COC(c1cn([C@H]2C[C@H](O)[C@@H](CO)O2)c(=O)[nH]c1=O)C(Cl)Cl,cytopathic effect,MS,EC50,HFF,>141 µM
CSCc1cn([C@H]2C[C@H](O)[C@@H](CO)O2)c(=O)[nH]c1=O,cytopathic effect,VCX304,EC50,PRK,4 µg/mL
CCCc1cn([C@H]2C[C@H](O)[C@@H](CO)O2)c(=O)[nH]c1=O,cytopathic effect,LYONS,EC50,PRK,4.8 µg/mL
CC(C)c1cn([C@@H]2OC3COP(=O)(O)OC3[C@H]2O)c(=O)nc1N,,G,EC50,,>400 µg/mL
c1ccc(-c2cc3ccccn3c2)nc1,plaque count,186,EC50,VERO,>100 µM
Nc1ncnc2c1ncn2C[C@@H](CO)OCP(=O)(O)O,cytopathic effect,LYONS,EC50,PRK,1 µg/mL
C=Cc1cn([C@H]2C[C@H](O)[C@@H](CO)O2)c(=O)[nH]c1=O,plaque count,42-78,EC50,HELF,9 µM
[N-]=[N+]=N[C@H]1C[C@H](CO)S[C@@H]1n1ccc(N)nc1=O,,,EC50,,>100 µg/mL
OC[C@H]1O[C@@H](c2cncc(Br)c2)[C@@H](O)[C@H]1O,cytopathic effect,G,EC50,E6SM,≥100 µg/mL
O=c1[nH]c(=O)n([C@H]2C[C@H](O)[C@@H](CO)O2)cc1/C=C/Br,cytopathic effect,G,EC50,PRK,2 µg/mL
Cc1ccn2c(C(SCCc3ccccc3)SCCc3ccccc3)cnc2c1,,G,EC50,E6SM,>1000 µM
Cc1cn(CC[C@H](O)CCO)c(=O)[nH]c1=O,cytopathic effect,196,EC50,E6SM,>400 µg/mL
O=Cc1cn([C@H]2C[C@H](O)[C@@H](CO)O2)c(=O)[nH]c1=O,cytopathic effect,196,EC50,PRK,1 µg/mL
CCCCCCC#Cc1c[nH]c(=O)[nH]c1=O,cytopathic effect,G,EC50,HEL,>200 µM
Cc1cn([C@@H]2O[C@H](CO)[C@@H](O)[C@@H]2O)c(=O)[nH]c1=O,,MS,MIC,,1 µg/mL
COc1cc(OC)c(NC(=S)Nc2ccc(NC(=O)c3ccccc3F)cc2Cl)cc1Cl,ELISA,186,EC50,HFF,8.9 µg/mL
O=c1c2ncn(COC(CO)CO)c2nc2[nH]c(-c3ccc(C(F)(F)F)cc3)cn12,cytopathic effect,196,EC50,HEL,9.6 µg/mL
OC[C@H]1O[C@@H](c2cncc(Br)c2)[C@@H](O)[C@@H]1O,cytopathic effect,G,EC50,E6SM,≥100 µg/mL
Nc1ncnc2c1ncn2[C@@H]1C[C@H](CO)[C@@H](O)[C@@H]1O,,MS,MIC,,10 µg/mL
Nc1ncnc2c1ncn2[C@@H]1O[C@H](CO)[C@@H](O)[C@H]1OP(=O)(O)OC[C@H]1O[C@@H](n2cnc3c(N)ncnc32)[C@H](OP(=O)(O)OC[C@H]2O[C@@H](n3cc(F)c(=O)[nH]c3=O)C[C@@H]2O)[C@@H]1O,cytopathic effect,G,EC50,PRK,70 µg/mL
CCCc1cn([C@@H]2O[C@H](COP(=O)(O)O)[C@@H](O)[C@H]2O)c(=O)nc1N,,196,EC50,,>400 µg/mL
CCCn1cc2c(=O)ncnc-2c2ccc(-c3ccncc3)cc21,plaque count,,EC50,VERO,>100 µg/mL
[N-]=[N+]=N[C@H]1C[C@@H](CO)S[C@@H]1n1cnc2c(N)ncnc21,,,EC50,,>100 µg/mL
Cc1cn([C@@H]2O[C@H](CO)[C@@H](O)[C@@H]2O)c(=O)[nH]c1=O,plaque count,42-78,EC50,HELF,1.4 µM
O=c1[nH]c(=O)n([C@H]2C[C@H](O)[C@@H](CO)O2)cc1I,cytopathic effect,VCX301,EC50,PRK,0.3 µg/mL
COc1ccc2nc3n[nH]c(C)c3c(SCc3ccco3)c2c1,plaque count,,EC50,WI-38,1.8 µg/mL
c1coc(-c2cc3ccccn3c2)c1,plaque count,186,EC50,VERO,50–100 µM
[N-]=[N+]=NCc1cn([C@H]2C[C@H](O)[C@@H](CO)O2)c(=O)[nH]c1=O,cytopathic effect,G,EC50,PRK,10 µg/mL
CC(C)OC(=O)c1c(C(C)C)cc2ccccn12,plaque count,186,EC50,VERO,50–100 µM
O=c1[nH]c(=O)n([C@@H]2O[C@H](CO)[C@@H](O)[C@@H]2O)cc1I,plaque count,42-78,EC50,HELF,100 µM
Clc1ccc(-c2cc3ccccn3c2)c(Cl)c1,plaque count,186,EC50,VERO,>100 µM
Nc1nc2c(ncn2CC(CO)CCO)c(=O)[nH]1,plaque count,91075,EC50,BHK,1.1 µM
O=c1[nH]c(=O)n([C@H]2C[C@H](O)[C@@H](CO)O2)cc1C(O)C(Br)Br,cytopathic effect,MS,EC50,HFF,6.3 µM
CCCn1cc2c(=O)n(C)nc-2c2ccc(-c3ccncc3)cc21,plaque count,,EC50,VERO,>3.1 µg/mL
CO[C@H](CO)[C@@H](O)CCn1cnc2c(N)ncnc21,cytopathic effect,G,EC50,E6SM,>400 µg/mL
CC(=O)c1c(-c2ccc(OC(F)(F)F)cc2)cc2ccccn12,plaque count,186,EC50,VERO,>100 µM
Cc1ccn2c(C3SCCS3)cnc2c1,,G,EC50,E6SM,>1000 µM
O=c1[nH]c(=O)n([C@H]2C[C@H](O)[C@@H](CO)O2)cc1/C=C/Br,plaque count,42-78,EC50,HELF,27 µM
CCc1cn([C@H]2C[C@H](O)[C@@H](COP(=O)(O)O)O2)c(=O)[nH]c1=O,cytopathic effect,LYONS,EC50,PRK,0.4 µg/mL
Nc1ncc2ncn(/C=C3\CC3CO)c2n1,ELISA,,EC50,,>100 µM
O=C(O)c1ccc2cc(-c3ccccc3)cn2c1,plaque count,186,EC50,VERO,>100 µM
Nc1ncc2c(ncn2/C=C2/CC2CO)n1,ELISA,,EC50,,>100 µM
Cc1c(-c2ccc(C(F)(F)F)cc2)[nH]c2nc3c(ncn3COCCO)c(=O)n12,cytopathic effect,196,EC50,HEL,9.6 µg/mL
Cc1cn([C@@H]2OC3COP(=O)(O)OC3[C@H]2O)c(=O)nc1N,,LYONS,EC50,,>400 µg/mL
O=c1[nH]c(=O)n([C@H]2C[C@H](O)[C@@H](CO)O2)cc1C(O)C(Cl)I,cytopathic effect,MS,EC50,HFF,15.8 µM
Brc1ccc2cc(-c3ccccc3)cn2c1,plaque count,186,EC50,VERO,>100 µM
N#Cc1cncc([C@@H]2O[C@H](CO)[C@H](O)[C@@H]2O)c1,cytopathic effect,G,EC50,E6SM,≥100 µg/mL
[N-]=[N+]=N[C@@H]1C[C@@H](CO)S[C@H]1n1cnc2c(=O)[nH]cnc21,,,EC50,,>100 µg/mL
Nc1ccn(CC[C@H](O)CCO)c(=O)n1,cytopathic effect,LYONS,EC50,E6SM,>400 µg/mL
Nc1nc2c(ncn2CC[C@@H](O)CO)c(=O)[nH]1,plaque count,91075,EC50,HEL,5.9 µM
Cc1ccc(S(=O)(=O)n2cc(I)c(=O)[nH]c2=O)cc1,cytopathic effect,G,EC50,HEL,>200 µM
[N-]=[N+]=N[C@H]1C[C@H](CO)SC1n1cnc2c(N)ncnc21,,,EC50,,>100 µg/mL
O=c1c2ncn(COC(CO)CO)c2nc2[nH]c(-c3ccccc3)cn12,cytopathic effect,G,EC50,E6SM,0.3 µg/mL
CC1(C)C(OC2O[C@H](C(=O)O)[C@@H](O)[C@H](NC3[C@@H](O)[C@H](O)[C@@H](CO)O[C@@H]3O)[C@H]2OC2O[C@H](O)[C@@H](O)[C@H](O)[C@H]2C(=O)O)CC[C@@]2(C)C1CC[C@]1(C)C2C(=O)C=C2C3C[C@@](C)(C(=O)O)CC[C@]3(C)CC[C@]21C,cytopathic effect,,EC50,VERO,>250 µg/mL
Cc1cccn2c(C3SCCS3)cnc12,,G,EC50,E6SM,>1000 µM
O=c1[nH]c(=O)n([C@H]2C[C@H](O)[C@@H](CO)O2)cc1C(O)C(Cl)Cl,cytopathic effect,MS,EC50,HFF,>73.5 µM
CCCCCC#Cc1cn(S(=O)(=O)c2ccc(C)cc2)c(=O)[nH]c1=O,cytopathic effect,G,EC50,HEL,>40 µM
CCCCCc1cn([C@@H]2O[C@H](COP(=O)(O)O)[C@@H](O)[C@H]2O)c(=O)nc1N,,LYONS,EC50,,>400 µg/mL
CCCCCCCCc1cc2cnc(=O)[nH]c2o1,cytopathic effect,G,EC50,HEL,>200 µM
C=Cc1cn([C@@H]2O[C@H](CO)[C@@H](O)[C@@H]2O)c(=O)[nH]c1=O,plaque count,42-78,EC50,HELF,9 µM
CCCCC#Cc1c[nH]c(=O)[nH]c1=O,cytopathic effect,G,EC50,HEL,>200 µM
NC(=O)c1cncc([C@@H]2O[C@H](CO)[C@H](O)[C@@H]2O)c1,cytopathic effect,G,EC50,E6SM,≥100 µg/mL
O=c1[nH]c(=O)n([C@@H]2O[C@H](CO)[C@@H](O)[C@@H]2O)cc1F,plaque count,42-78,EC50,HELF,156 µM
O=c1[nH]c(=O)n([C@H]2C[C@H](O)[C@@H](CO)O2)cc1I,,MS,MIC,,3.2 µg/mL
NC(=O)c1cncc([C@H]2O[C@H](CO)[C@@H](O)[C@@H]2O)c1,cytopathic effect,G,EC50,E6SM,≥100 µg/mL
Nc1ncnc2c1ncn2/C=C1/CC1(CO)CO,cytopathic effect,,EC50,HFF,>380 µM
COC(c1cn([C@H]2C[C@H](O)[C@@H](CO)O2)c(=O)[nH]c1=O)C(I)I,cytopathic effect,MS,EC50,HFF,>93 µM
Nc1ncnc2c1ncn2[C@@H]1O[C@H](CO)[C@@H](O)[C@H]1OP(=O)(O)OC[C@H]1O[C@@H](n2cnc3c(N)ncnc32)[C@H](OP(=O)(O)OC[C@H]2O[C@@H](n3cc(/C=C/Br)c(=O)[nH]c3=O)C[C@@H]2O)[C@@H]1O,cytopathic effect,G,EC50,PRK,7 µg/mL
O=c1c2ncn(COCCO)c2nc2[nH]c(-c3ccc(C(F)(F)F)cc3)cn12,cytopathic effect,LYONS,EC50,HEL,>16 µg/mL

The first 7 rows once more:

compound | method | strain or isolate | endpoint | cells | value
CCCCCCOC(=O)c1ccc2cc(-c3ccccc3)cn2c1 | plaque count | 186 | EC50 | VERO | >100 µM
C#Cc1cn(S(=O)(=O)c2ccc(C)cc2)c(=O)[nH]c1=O | cytopathic effect | G | EC50 | HEL | >200 µM
Nc1nc2c(ncn2CCC(CO)CO)c(=O)[nH]1 | plaque count | UW-268 | EC50 | MRC-5 | 2.2 µg/mL
O=c1c2ncn(COCCO)c2nc2[nH]c(-c3ccccc3)c(Cc3ccccc3)n12 | cytopathic effect | LYONS | EC50 | HEL | >16 µg/mL
CCCc1cn([C@@H]2O[C@H](CO)[C@@H](O)[C@@H]2O)c(=O)[nH]c1=O |  | MS | MIC |  | 320 µg/mL
Cc1ccn2c(C3OCCS3)cnc2c1 |  | G | EC50 | E6SM | >1000 µM
COC(c1cn([C@H]2C[C@H](O)[C@@H](CO)O2)c(=O)[nH]c1=O)C(Cl)Cl | cytopathic effect | MS | EC50 | HFF | >141 µM

a–b is a range or a potency band. Conditions beyond the fields shown may differ between rows. An empty or dashed field is not shown.